1 compound from patent US20260335320A1, “ANTI-VIRULENCE AGENTS AND METHODS FOR THE TREATMENT OF PATHOGENIC BACTERIUM” (priority 2023, published 2026) can be followed below.

Data set [1] deals with P. aeruginosa strain PA14. Nature of the data set: P. aeruginosa-induced cytotoxicity of A549 cells (LDH release). Conditions: Pseudomonas aeruginosa, PA14, A549, in Homo sapiens, 5.5 h, read-out: reduction of cytotoxicity induced by P. aeruginosa strain PA14. In general terms: LDH leaks from cells whose membrane has failed.
In data set [2] the test system is P. aeruginosa strain PA01. The description is as above. Conditions: 5.5 hours.

`CCCCCCc1cc2cc(-c3nnc(-c4ccc(C)cc4)o3)c(=O)oc2cc1O` [BFA1, 6-HEXYL-7-HYDROXY-3-[5-(4-METHYLPHENYL)-1,3,4-OXADIAZOL-2-YL]-2H-CHROMEN-2-ONE]: in data set [1], the inhibition at 12.5 µM is approximately 50% and the inhibition at 25 µM is approximately 80%. Also, the “inhibition of cytotoxicity induced by P. aeruginosa strain PA01” value in data set [2] is “able to inhibit the cytotoxicity induced by P. aeruginosa strain PA01”.
